The record followed here is patent US7642277B2, “Non-nucleoside reverse transcriptase inhibitors” (Boehringer Ingelheim International GmbH, priority 2002, dated 2010).

For assay [1], the target named is HIV-1 RT enzyme (wild type) (Human immunodeficiency virus type 1 group M subtype B, UniProt P04585). Description: Reverse transcriptase (RT) enzymatic assay (IC50), PicoGreen fluorescence, wild type. The conditions noted are these: read-out: IC50 WT. It counts as biochemical.
Assay [2] has as its system HIV-1 resistant mutant K103N/Y181C in C8166 LTRluc cells. Description: C8166 HIV-1 luciferase assay (EC50), resistant mutant. The format is cell-based. The following applies: read-out: EC50 K103N/Y181C, C8166 HIV-1 luciferase assay (no *).

Take `F/C(=C/c1ccccc1Cl)CSc1nnnn1-c1cccc2ccccc12`: in assay [1], the IC50 is over 100 nM.

As to `F/C(=C\c1ccccc1Cl)CSc1nnnn1-c1cccc2ccccc12`, the half-inhibitory concentration (IC50) in assay [1] is over 100 nM. The same measure, in the same setting: with `Cc1ccc(-c2ccccc2CCC(=O)Nc2ccccc2Cl)c(Cl)c1` the figure was over 100 nM.

Regarding `CC(C)(C)c1ccc(-n2nnnc2SCC(=O)Nc2ccccc2Cl)c(Cl)c1`, the EC50 in assay [2] is over 100 nM.
